Test results taken from PMC6319706 (PLoS ONE, 2019).

The chains behind the UniProt entries cited, without tags or fusion partners. Where a name states a change or a piece, a line headed by the entry shows the natural chain unless it says otherwise. Residues count along the entry.
UniProt P02710: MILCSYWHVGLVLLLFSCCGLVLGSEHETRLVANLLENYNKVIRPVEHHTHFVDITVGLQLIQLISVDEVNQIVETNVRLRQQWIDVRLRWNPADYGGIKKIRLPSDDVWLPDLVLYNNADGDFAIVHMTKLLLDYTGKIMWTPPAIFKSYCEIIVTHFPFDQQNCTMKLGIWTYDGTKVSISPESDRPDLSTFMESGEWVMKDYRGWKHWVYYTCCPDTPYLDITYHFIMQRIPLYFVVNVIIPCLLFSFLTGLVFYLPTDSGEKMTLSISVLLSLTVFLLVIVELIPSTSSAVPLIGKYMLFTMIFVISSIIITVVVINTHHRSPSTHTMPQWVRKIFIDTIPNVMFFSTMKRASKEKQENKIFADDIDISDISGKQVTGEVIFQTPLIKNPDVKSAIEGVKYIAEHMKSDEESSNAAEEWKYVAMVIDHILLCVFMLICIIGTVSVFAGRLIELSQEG
UniProt P02714: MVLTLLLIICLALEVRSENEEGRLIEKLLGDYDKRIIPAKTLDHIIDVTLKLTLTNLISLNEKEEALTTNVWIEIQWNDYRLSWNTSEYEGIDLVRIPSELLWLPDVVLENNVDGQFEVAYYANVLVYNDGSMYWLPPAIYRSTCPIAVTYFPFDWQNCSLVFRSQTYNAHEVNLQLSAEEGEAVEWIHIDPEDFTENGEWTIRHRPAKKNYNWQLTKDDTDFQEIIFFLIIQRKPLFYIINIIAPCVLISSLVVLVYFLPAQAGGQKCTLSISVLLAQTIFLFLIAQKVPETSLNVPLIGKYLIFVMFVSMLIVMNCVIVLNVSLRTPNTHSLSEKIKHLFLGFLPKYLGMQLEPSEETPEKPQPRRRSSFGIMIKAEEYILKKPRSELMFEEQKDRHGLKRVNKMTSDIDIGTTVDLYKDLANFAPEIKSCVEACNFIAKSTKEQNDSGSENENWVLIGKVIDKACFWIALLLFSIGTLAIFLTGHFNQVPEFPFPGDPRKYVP
UniProt P02718: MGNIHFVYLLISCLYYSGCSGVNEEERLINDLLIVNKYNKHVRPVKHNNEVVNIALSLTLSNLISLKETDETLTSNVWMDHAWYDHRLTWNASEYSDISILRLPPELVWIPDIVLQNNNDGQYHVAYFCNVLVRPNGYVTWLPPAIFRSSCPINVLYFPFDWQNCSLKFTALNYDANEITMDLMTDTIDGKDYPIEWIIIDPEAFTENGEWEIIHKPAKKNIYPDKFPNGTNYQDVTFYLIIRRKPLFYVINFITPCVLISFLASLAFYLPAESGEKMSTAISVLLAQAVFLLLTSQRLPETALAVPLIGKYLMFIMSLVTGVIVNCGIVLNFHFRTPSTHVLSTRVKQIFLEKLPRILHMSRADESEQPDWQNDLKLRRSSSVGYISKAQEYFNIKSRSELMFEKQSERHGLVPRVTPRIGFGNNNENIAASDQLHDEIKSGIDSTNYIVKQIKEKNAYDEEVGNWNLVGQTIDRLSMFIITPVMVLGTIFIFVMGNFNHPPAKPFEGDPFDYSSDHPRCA
UniProt Q8WSF8, 18-236 limits assumed: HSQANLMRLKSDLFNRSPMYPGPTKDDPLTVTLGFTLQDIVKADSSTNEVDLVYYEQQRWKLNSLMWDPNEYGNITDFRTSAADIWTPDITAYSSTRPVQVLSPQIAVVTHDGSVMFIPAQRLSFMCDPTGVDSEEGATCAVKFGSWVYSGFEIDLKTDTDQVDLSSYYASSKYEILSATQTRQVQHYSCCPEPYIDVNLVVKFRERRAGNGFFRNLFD
UniProt P36544, 23-502 limits assumed: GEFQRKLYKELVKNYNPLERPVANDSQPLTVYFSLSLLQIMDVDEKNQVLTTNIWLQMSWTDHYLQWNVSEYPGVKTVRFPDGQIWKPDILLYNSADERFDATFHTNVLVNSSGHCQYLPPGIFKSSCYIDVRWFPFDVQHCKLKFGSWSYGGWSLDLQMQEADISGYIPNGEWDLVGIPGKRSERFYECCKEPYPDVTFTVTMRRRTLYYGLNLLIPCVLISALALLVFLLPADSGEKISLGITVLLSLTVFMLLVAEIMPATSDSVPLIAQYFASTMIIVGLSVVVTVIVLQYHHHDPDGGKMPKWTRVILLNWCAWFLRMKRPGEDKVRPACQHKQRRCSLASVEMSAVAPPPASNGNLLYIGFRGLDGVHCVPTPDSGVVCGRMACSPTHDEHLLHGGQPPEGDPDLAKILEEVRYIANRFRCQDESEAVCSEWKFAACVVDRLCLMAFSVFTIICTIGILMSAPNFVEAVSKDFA

Experiments:
T. californica nAChR = T. californica nAChR (Tetronarce californica, UniProt P02710+P02714+P02718); test: Radioligand assay, competition with [125I]-αBgt for T. californica electric organ membranes; conditions: for IC50: inhibition of [125I]-αBgt binding, 95% CI in the row below; for nH (Hill slope): mean ± SEM
A. californica AChBP = A. californica AChBP (Aplysia californica, UniProt Q8WSF8); test: Radioligand assay, competition with [125I]-αBgt for A. californica AChBP; conditions: for IC50: inhibition of [125I]-αBgt binding, 95% CI in the row below; for nH (Hill slope): mean ± SEM, [125I]-αBgt binding
human α7 nAChR = human α7 nAChR (Homo sapiens, UniProt P36544); test: Radioligand assay, competition with [125I]-αBgt for α7 nAChR in GH4C1 cells; conditions: for IC50: inhibition of [125I]-αBgt binding, 95% CI in the row below; for nH (Hill slope): mean ± SEM, [125I]-αBgt binding

Structure (SMILES)	IC50 (T. californica nAChR)	nH (Hill slope) (T. californica nAChR; [125I]-αBgt binding)	IC50 (A. californica AChBP)	nH (Hill slope) (A. californica AChBP)	IC50 (human α7 nAChR)	nH (Hill slope) (human α7 nAChR)	fold less potent than d-TC (T. californica nAChR; ratio of IC50 values, [125I]-αBgt binding)
COc1cc2c3c(c1O)Oc1ccc(cc1)C[C@@H]1NCCc4cc(OC)c(O)c(c41)-c1cc(ccc1O)C[C@H]3NCC2	17 µM	-1.05 ± 0.02	–	–	–	–	–
COc1cc2c(cc1O)[C@@H](Cc1ccc(O)c(Oc3cc4c(cc3OC)CCN[C@H]4Cc3ccc(O)cc3)c1)NCC2 [BBIQA1]	26.3 µM	-1.13 ± 0.02	3.8 µM	-1.39 ± 0.09	162 µM	-1.19 ± 0.10	–
COc1ccc2cc1Oc1cc3c(cc1O)CCN[C@H]3Cc1ccc(cc1)Oc1c(O)c(OC)cc3c1[C@@H](C2)[N+](C)(C)CC3 [BBIQA2]	8.75 µM	-0.69 ± 0.05	7.63 µM	-1.16 ± 0.11	5.52 µM	-0.82 ± 0.05	22 fold
COc1cc2c3cc1Oc1cc(ccc1O)C[C@@H]1c4c(cc(OC)c(O)c4Oc4ccc(cc4)C[C@@H]3N(C)CC2)CC[N+]1(C)C [d-TC, d-tubocurarine, reference compound]	–	-1.28 ± 0.11	–	–	7.77 µM	-1.02 ± 0.05	–
